Assays:
[1] = tested on: Escherichia coli ATCC 25922; assay: Rapid antibiotic susceptibility test (RAST) in microfluidic agarose channel (MAC), MIC by single-cell time-lapse imaging; type: cell-based; details: E. coli ATCC 25922; RAST method
Description: Radial microfluidic channels with six branches were formed using soft-lithography. First, SU8 mold (2015 SU8, Microchem) was fabricated by employing photolithography. Polydimethylsiloxane (PDMS, Dow Corning) was mixed with a curing agent (10:1, w/w) and poured into the SU8. After baking at 150° C. for 10 min, the PDMS was peeled off and attached to the PDMS-coated slide glass by O2 plasma treatment to obtain a radial microfluidic channel chip capable of testing antibiotics having five concentrations and a control with no antibiotic. There were six main channels that carried one side-branched channel each. […] A mixture of agarose and bacteria was allowed to flow in the main channels, and the bioactive agents were allowed to flow in the respective side-branched channels. In the middle of each main channel, there were anchors in the form of micro-sized posts for forming an interface between the agarose and each of the bioactive agents. The posts blocked the agarose from flowing into the side-branched channel. The sizes of the posts and the pitches between the posts were determined by mathematical calculations. For appropriate hydrophobicity to occur in the channel, the channel was prepared one day before experiment to increase the surface tension after O2 plasma treatment. Agarose is solidified at a temperature lower than 36° C. The cultured bacteria were mixed with 2% agarose (1:3, v/v) at 45° C. and immediately injected into the microfluidic channels. The agarose-bacteria mixture was solidified at 25° C. for 1 min. The obtained microfluidic agarose channel (MAC) chip was placed on a hot plate and incubated at 37° C. […] The growth of the bacteria was monitored using a microscope. Bacterial growth was not inhibited and could be clearly monitored in the MAC system. […] The Matlab program calculated the areas that were occupied by each bacterium. […] The occupied areas were measured using the image processing program. […] Bacterial growth was monitored by using a microscope (40×) and a CCD camera. Images of bacterial growth were taken every hour and were analyzed by using the image processing program. […]

[2] = tested on: Staphylococcus aureus ATCC 29213; assay: as above; type: cell-based; details: S. aureus ATCC 29213; RAST method
Description: Radial microfluidic channels with six branches were formed using soft-lithography. First, SU8 mold (2015 SU8, Microchem) was fabricated by employing photolithography. Polydimethylsiloxane (PDMS, Dow Corning) was mixed with a curing agent (10:1, w/w) and poured into the SU8. After baking at 150° C. for 10 min, the PDMS was peeled off and attached to the PDMS-coated slide glass by O2 plasma treatment to obtain a radial microfluidic channel chip capable of testing antibiotics having five concentrations and a control with no antibiotic. There were six main channels that carried one side-branched channel each. […] A mixture of agarose and bacteria was allowed to flow in the main channels, and the bioactive agents were allowed to flow in the respective side-branched channels. In the middle of each main channel, there were anchors in the form of micro-sized posts for forming an interface between the agarose and each of the bioactive agents. The posts blocked the agarose from flowing into the side-branched channel. The sizes of the posts and the pitches between the posts were determined by mathematical calculations. For appropriate hydrophobicity to occur in the channel, the channel was prepared one day before experiment to increase the surface tension after O2 plasma treatment. Agarose is solidified at a temperature lower than 36° C. […] The growth of the bacteria was monitored using a microscope. Bacterial growth was not inhibited and could be clearly monitored in the MAC system. […] The Matlab program calculated the areas that were occupied by each bacterium. […] The occupied areas were measured using the image processing program. […] Bacterial growth was monitored by using a microscope (40×) and a CCD camera. Images of bacterial growth were taken every hour and were analyzed by using the image processing program. […] After image processing, the bacteria that occupied the area were measured and plotted on the graph for different concentrations of gentamicin according to the incubation time. […]

| Compound | Time required to determine the MIC [1] [h] | Time required to determine the MIC [2] [h] |
| --- | --- | --- |
| NCC[C@H](O)C(=O)N[C@@H]1C[C@H](N)[C@@H](O[C@H]2O[C@H](CN)[C@@H](O)[C@H](O)[C@H]2O)[C@H](O)[C@H]1O[C@H]1O[C@H](CO)[C@@H](O)[C@H](N)[C@H]1O [Amikacin] | 3 | 3 |
| CCn1cc(C(=O)O)c(=O)c2cc(F)c(N3CCNCC3)cc21 [Norfloxacin] | 4 | 7 |
| gentamicin [Geninmycin] | 4 | 3 |
